Results deposited as PubChem BioAssay AID1259414 (Drosophila RNAi Screening Center, 2018).
The screen tested about 24,000 reagents; shown is a random part of those that have a named target and a result. In the full data, about 1,210 (5%) are marked active. 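Inactive calls also include excluded dsRNAs with several or no targets, genes unexpressed in JW18, and well A1, regardless of score.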 A plus sign joins genes that one reagent is predicted to hit.

Aim: 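Host factors increasing or decreasing Wolbachia levels in cultured fly cells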 (primary screen)
Cell system: Drosophila JW18 cells infected with Wolbachia
Reagents: long dsRNA against Drosophila genes, 0.25 µg dsRNA per well of a 384-well plate
Duration: 5 days
Conditions: cells persistently infected with Wolbachia before knock-down; no added drug
Measurement: 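Imaged fluorescence in situ signal for Wolbachia 23S rRNA per DAPI-counted host cell, given as a robust z-score within each plate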
Scale: Wolbachia per cell robust z: higher = more Wolbachia per host cell than the plate typical
Hit rule: 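Active if absolute robust z reaches 1.5 in two or more of three replicates, leaving out multi- or no-target dsRNAs, genes unexpressed in JW18 and A1 wells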

gene	DRSC id	Wolbachia per cell robust z, rep 1	Wolbachia per cell robust z, rep 2	Wolbachia per cell robust z, rep 3	call
Rfk	DRSC15454	0.614	0.267	0.179	inactive
Rfk	DRSC29260	-0.391	-1.27	1.78	inactive
luna	DRSC05253	0.613	1.83	-0.582	inactive
luna	DRSC24992	0.154	-0.875	-2.21	inactive
CG10194	DRSC02025	-0.836	0.438	0.987	inactive
CG11842	DRSC14400	0.243	0.584	1.8	inactive
CG11842	DRSC24924	-0.0213	0.42	-1.24	inactive
lncRNA:CR41601	DRSC22158	-0.624	-1.58	-0.912	inactive
Abd-B	DRSC14098	0.182	-1.73	-5.3	inactive
Abd-B	DRSC14337	1.27	-5.04	0.403	inactive
Abd-B	DRSC28796	-0.298	0.0502	0.838	inactive
Oscillin	DRSC03001	0.208	-1.64	-0.0881	inactive
Oscillin	DRSC29150	0.764	1.31	1.09	inactive
Skel	DRSC14905	-0.449	0.0856	0.114	inactive
Skel	DRSC14906	0.642	0.288	0.263	inactive
CG12817	DRSC14555	0.222	-7.4	-5.29	inactive
Desat1	DRSC16668	1.68	1.97	2.61	active
Desat1	DRSC23578	2.01	4.56	4.68	active
Desat1	DRSC40759	-0.452	0.241	1.09	inactive
RpL7A	DRSC18709	2.02	3.17	2.19	active
RpL7A	DRSC28833	1.93	3.42	3.29	active
Ag5r2	DRSC19328	-0.282	-0.323	0.122	inactive
PolE4	DRSC04105	-1.55	-0.97	-9.16	active
CG30010	DRSC05193	-0.0448	-0.243	0.0167	inactive
RpS20	DRSC16836	0.301	1.07	0.988	inactive
unc-5	DRSC05545	0.457	0.187	0.371	inactive
unc-5	DRSC07711	-3.17	0.149	0.0904	inactive
unc-5	DRSC07712	0.684	0.238	0.662	inactive
CG12376	DRSC06144	-1.12	-0.612	-3.47	inactive
CG12376	DRSC29464	-0.556	0.0823	-0.729	inactive
lncRNA:CR43372	DRSC15041	-0.869	0.281	0.184	inactive
crim	DRSC10573	-3.55	0.901	1.39	inactive
CG14830 + asRNA:CR43470	DRSC26586	-2.88	-2.2	-1.27	inactive
CG15452	DRSC20523	0.135	-1.45	-3.9	inactive
Yif1	DRSC15817	0.0962	0.474	0.214	inactive
CG12662	DRSC17865	-4.57	-0.174	-0.0901	inactive
CG7564	DRSC10880	0.326	0.0324	-0.194	inactive
CG7564	DRSC28225	0.665	-0.0721	-0.571	inactive
stnB + stnA	DRSC20969	-0.379	-0.249	-0.307	inactive
stnB + stnA	DRSC21112	1.01	-0.539	0.915	inactive
CG17734	DRSC15256	-0.978	-2.85	-2.23	inactive
CG17734	DRSC29210	1.39	1.3	0.69	inactive
CG12857	DRSC06197	0.589	0.228	0.339	inactive
CG31952	DRSC00428	-0.48	-0.15	0.66	inactive
CG31952	DRSC21997	1.05	0.334	0.25	inactive
CG31952	DRSC26442	0.241	0.792	-0.63	inactive
nonA	DRSC20357	-3.54	0.629	0.787	inactive
nonA	DRSC27455	1.27	0.456	-0.0721	inactive
nonA	DRSC41353	-1.13	-2.3	0.418	inactive
mRpL54	DRSC04545	0.476	0.162	0.381	inactive
CngB	DRSC04297	-7.03	-0.817	0.432	inactive
Spn88Ea	DRSC17061	0.578	-0.504	0.188	inactive
Spn88Ea	DRSC27907	1.3	-0.646	0.293	inactive
CG42394 + CG6567	DRSC40574	-0.965	-2.26	-0.438	inactive
CG11537	DRSC08200	0.616	0.768	0.43	inactive
CG33468	DRSC22940	0.354	0.415	-0.911	inactive
lsn	DRSC16081	-0.486	1.16	0.498	inactive
lsn	DRSC25700	0.853	1.21	-0.351	inactive
CG33946	DRSC37877	-1.65	-0.534	0.768	inactive
CG33946	DRSC39122	0.404	0.963	0.588	inactive
lky	DRSC20682	0.804	0.478	0.852	inactive
lky	DRSC27161	1.34	-0.016	1.32	inactive
CG5539	DRSC04510	-0.158	0.913	1.84	inactive
CG10469 + CG10467	DRSC28645	0.637	-1.03	-1.17	inactive
CG6429	DRSC06986	0.124	-0.246	-0.627	inactive
nsl1	DRSC15625	0.726	0.742	0.573	inactive
CG15394	DRSC00408	-0.0383	-0.89	1.43	inactive
CG5532	DRSC04509	1.08	0.233	-0.649	inactive

Ordered by “Wolbachia per cell robust z, rep 2” (descending): 10 of the entries above
gene	DRSC id	Wolbachia per cell robust z, rep 1	Wolbachia per cell robust z, rep 2	Wolbachia per cell robust z, rep 3	call
RpL7A	DRSC28833	1.93	3.42	3.29	active
RpS20	DRSC16836	0.301	1.07	0.988	inactive
unc-5	DRSC07712	0.684	0.238	0.662	inactive
unc-5	DRSC05545	0.457	0.187	0.371	inactive
unc-5	DRSC07711	-3.17	0.149	0.0904	inactive
CG12376	DRSC29464	-0.556	0.0823	-0.729	inactive
CG30010	DRSC05193	-0.0448	-0.243	0.0167	inactive
Ag5r2	DRSC19328	-0.282	-0.323	0.122	inactive
CG12376	DRSC06144	-1.12	-0.612	-3.47	inactive
PolE4	DRSC04105	-1.55	-0.97	-9.16	active
